Test results from patent publication US11834696B2, “Antimicrobial susceptibility testing with large-volume light scattering imaging and deep learning video microscopy” (Arizona Board of Regents on behalf of Arizona State …, priority 2017, dated 2023).

Key:
[1] = test system: E. coli; test: Deep learning video microscopy-based antimicrobial susceptibility testing (DLVM-AST); type: cell-based, Escherichia coli (ATCC 43888); conditions: time needed to determine MIC; triplicate
[2] = test system: E. coli; test: AST without DL (division feature only, cell counting from the videos); type: cell-based, Escherichia coli (ATCC 43888); conditions: triplicate
Procedure: To further validate the DLVM-AST method, we counted the total number of bacteria cells (Ntotal) from the videos (as shown in FIG. 9), and plotted Ntotal (mean±std) vs. time for PMB at various concentrations (as shown in FIG. 11C).
Growth and preparation of E. coli. Frozen E. coli strains were thawed, and 50 μL of which were cultured in 5 mL of Luria-Bertani (LB) medium (Per liter: 10 g peptone 140, 5 g yeast extract, and 5 g sodium chloride) at 37° C. and 150 rpm for 16 hours. Saturated cultures in the volume of 20 μL were diluted into 5 mL of fresh LB medium, and growth continued at 37° C. with 150 rpm for 1 hour to attain a logarithmic phase of growth. Bacterial cells were collected by centrifugation at 450 g for 5 min and suspended in urine to a concentration of 2×10^7 cells/mL^36. This concentration was determined by measuring the extinction coefficients for E. coli from the Optical Density (OD600) reading taken with a spectrophototometer (NanoDrop™ 2000/2000c Spectrophotometers, Thermo Scientific). The calibration factor for bacterial cell cultures estimation was 8×10^8 cells/mL per OD600 unit. […]
AST with video microscopy. […] Videos of the bacterial cells were recorded at 100 frames per second (fps) immediately (0 min) and after every 30 min. […] To include enough cells for reliable results, we integrated bacterial cells from three videos recorded from different experiments. […]

**Q.** How did the “assay time, DLVM-AST” value [1] turn out when `O=C(O)c1cn(C2CC2)c2cc(N3CCNCC3)c(F)cc2c1=O` [Ciprofloxacin, ciprofloxacin] was run?
**A.** The value was 3 h.

**Q.** What about the “assay time, AST Without DL” value [2] of the same molecule?
**A.** The value was 4 to 5 h.

**Q.** Which results are given for polymyxin B?
**A.** assay time, DLVM-AST [1]: 0.5 h; assay time, AST Without DL [2]: 3 h
